# Measurements as given in patent publication US20120329717A1, “Omega conotoxin peptides” (published 2012).
# Tests used:
# [1] = molecular target: recombinant N-type (Cav2.2) VGCC α1B-b/α2δ1/β2a expressed in Xenopus oocytes (rat; rabbit), Q02294; experiment: cell-based or functional assay
# [2] = molecular target: recombinant N-type (Cav2.2) VGCC α1B-b/α2δ1/β3 expressed in Xenopus oocytes (rat; rabbit), Q02294; experiment: cell-based or functional assay
Binder,"IC50 of block of IBa, Xenopus oocytes [1] [nM]","IC50 of block of IBa, Xenopus oocytes [2] [nM]"
CKGKGASCRKTSYDCCTGSCRSLRC (modifications not checked) [[R10K]CVIE],3.6,3.5
CKGKGASCRKTSYDCCTGSCRSGRC (modifications not checked) [[R10K]CVIF],–,7.6
